Measured values from several laboratories, pooled; numbers as filed in NIAID ChemDB.

Shared fields: growth or infection tests; agent: Vaccinia virus; endpoint: EC50

ECn: concentration that inhibits the pathogen or its effect by n%. Neighbouring rows are from separate reports.

{"SMILES": "Nc1ccn([C@H]2CC[C@@H](CO)O2)c(=O)n1", "cell line": "HFF", "value": ">474 µM"}
{"SMILES": "NC(=O)c1ncn([C@@H]2O[C@H](CO)[C@@H](O)[C@H]2O)n1", "cell line": "E6SM", "value": "33 µg/mL"}
{"SMILES": "NC(=O)c1csc([C@@H]2O[C@H](CO)[C@@H](O)[C@H]2O)n1", "cell line": "VERO", "value": "45 µg/mL"}
{"SMILES": "C[C@H](O)[C@@H]1C[C@H](CCn2cnc3c(N)ncnc32)C1(C)C", "cell line": "E6SM", "value": ">150 µg/mL"}
{"SMILES": "Nc1nc2c(ncn2COCCO)c(=O)[nH]1", "cell line": "HFF", "value": ">144 µM"}
{"SMILES": "O=c1[nH]c(=O)n([C@H]2C[C@H](O)[C@@H](CO)O2)cc1CO", "cell line": "PRK", "value": "4 µg/mL"}
{"SMILES": "Nc1ccn(C[C@@H](CO)OCP(=O)(O)O)c(=O)n1", "cell line": "BSC", "value": "22 µM"}
{"SMILES": "O=c1[nH]cnc2c1ncn2[C@H]1CC[C@@H](CO)O1", "cell line": "VERO", "value": ">423 µM"}
{"SMILES": "Nc1ncc2ncn(CCOCP(=O)(O)O)c2n1", "cell line": "Primary rabbit kidney cells", "value": ">200 µg/mL"}
{"SMILES": "CC(C)(C)C(=O)OCOP(=O)(COCCn1cnc2c(N)ncnc21)OCOC(=O)C(C)(C)C", "cell line": "HFF", "strain or isolate": "WR", "value": "18.5 µM"}
{"SMILES": "C[C@H](O)[C@]1(C)C[C@H](Cn2nnc3c(N)ncnc32)C1(C)C", "cell line": "E6SM", "value": "70 µg/mL"}
{"SMILES": "Cn1cc(NC(=O)c2cc(NC(=O)CCCCC(=O)Nc3cc(C(=O)Nc4cc(C(=O)NCCC(N)=[NH2+])n(C)c4)n(C)c3)cn2C)cc1C(=O)NCCC(N)=[NH2+]", "cell line": "E6SM", "value": "0.2 µg/mL"}
{"SMILES": "Nc1ccn([C@@H]2C=C(CO)[C@@H](O)[C@H]2O)c(=O)n1", "cell line": "VERO", "value": "0.1 µg/mL"}
{"SMILES": "Nc1ccn(C[C@@H](CO)OCP(=O)(O)O)c(=O)n1", "cell line": "VERO", "value": "30 µM"}
{"SMILES": "C=Cc1cn([C@H]2C[C@H](O)[C@@H](CO)O2)c(=O)[nH]c1=O", "cell line": "PRK", "value": "0.4 µg/mL"}
{"SMILES": "CCCCOC(=O)C(C)NP(=O)(COCCn1cnc2c(NC3CC3)nc(N)nc21)NC(C)C(=O)OCCCC", "cell line": "HFF", "strain or isolate": "NYC", "value": "0.14 µM"}
{"SMILES": "O=c1[nH]c(=O)n([C@H]2C[C@H](O)[C@@H](CO)O2)cc1[N+](=O)[O-]", "cell line": "PRK", "value": "0.2 µg/mL"}
{"SMILES": "CCCCCCCCCCCCCCCCCCOCCOP(=O)(O)CO[C@H](CO)Cn1ccc(N)nc1=O", "cell line": "HFF", "strain or isolate": "Copenhagen", "value": "0.2 µM"}
{"SMILES": "C[C@H](O)[C@@H]1C[C@H](Cn2cnc3c(N)ncnc32)C1(C)C", "cell line": "E6SM", "value": ">300 µg/mL"}
{"SMILES": "Cn1cc(NC(=O)c2cc(NC(=O)CCCCCCCC(=O)Nc3cc(C(=O)Nc4cc(C(=O)NCCC(N)=[NH2+])n(C)c4)n(C)c3)cn2C)cc1C(=O)NCCC(N)=[NH2+]", "cell line": "VERO", "value": "55 µg/mL"}
{"SMILES": "CC(C)OC(=O)C(C)NP(=O)(COCCn1cnc2c(NC3CC3)nc(N)nc21)Oc1ccccc1", "cell line": "HFF", "strain or isolate": "Copenhagen", "value": "1.1 µM"}
{"SMILES": "CCCCCCCCCCCCCCCCCCOCCOP1(=O)CO[C@@H](Cn2ccc(N)nc2=O)CO1", "cell line": "HFF", "strain or isolate": "NYC", "value": "0.03 µM"}
{"SMILES": "Nc1ncnc2c1ncn2C[C@H]1COP(=O)(O)CO1", "cell line": "Primary rabbit kidney cells", "value": "0.7 µg/mL"}
{"SMILES": "Nc1ncnc2c1ncn2C[C@@H](CO)OCP(=O)(O)O", "cell line": "HFF", "strain or isolate": "NYC", "value": "5.9 µM"}
{"SMILES": "Nc1ncnc2c1ncn2C[C@H](O)CO", "cell line": "HeLa", "value": "70 µg/mL"}
{"SMILES": "Nc1nccc2c1ncn2[C@@H]1C=C(CO)[C@@H](O)[C@H]1O", "cell line": "PRK", "value": "0.07 µg/mL"}
{"SMILES": "Nc1nc(NC2CC2)c2ncn(CCOCP(=O)(O)O)c2n1", "cell line": "HFF", "strain or isolate": "WR", "value": "18 µM"}
{"SMILES": "NC(=S)N=Nc1c(O)[nH]c2ccccc12", "cell line": "HeLa", "value": "<1 µg/mL"}
{"SMILES": "O=c1[nH]cnc2c1ncn2CCOCP(=O)(O)O", "cell line": "Primary rabbit kidney cells", "value": ">400 µg/mL"}

The last 3 rows once more:

{"SMILES": "Nc1nc(NC2CC2)c2ncn(CCOCP(=O)(O)O)c2n1", "cell line": "HFF", "strain or isolate": "WR", "value": "18 µM"}
{"SMILES": "NC(=S)N=Nc1c(O)[nH]c2ccccc12", "cell line": "HeLa", "value": "<1 µg/mL"}
{"SMILES": "O=c1[nH]cnc2c1ncn2CCOCP(=O)(O)O", "cell line": "Primary rabbit kidney cells", "value": ">400 µg/mL"}